Data published in article PMC4417968, “Role of Acidic Residues in Helices TH8–TH9 in Membrane Interactions of the Diphtheria Toxin T Domain” (Toxins, 2015).

B1: diphtheria toxin T domain double mutant E349Q/D352N (domain or fragment)
chain: not shown
notes: diphtheria toxin T domain, […], with E349Q and D352N; a thrombin cleavage site stands between the His tag and the domain; source: monomeric fractions
B2: diphtheria toxin T domain single mutant E362Q (domain or fragment)
chain: not shown
notes: diphtheria toxin T domain, […], with E362Q; a thrombin cleavage site stands between the His tag and the domain; source: monomeric fractions

Biological target: the molecule itself
Experiment: SEC; 25 uM previously purified monomeric fractions incubated in 50 mM phosphate buffer pH 6.5; TSK-Gel G2000 SWXL column equilibrated at pH 6.5, 0.5 mL/min; monomer to dimer

Row | Protein | stoichiometry N
1 | B1 | 2
2 | B2 | 2
